PubChem BioAssay AID624099 | ICCB-Longwood, 2012
In all, the deposit lists about 21,000 reagents; shown is a part drawn at random. Over the whole deposit, 497 (2.4%) got an active call. 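Higher z means weaker E2 silencing; only reporter increases were scored, and knock-downs that hurt cell survival may mask genuine repressor factors.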

- Test: 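Knock-downs relieving repression by E2 of an HPV18 LCR luciferase reporter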 (primary screen)
- Cells: human C33A cervical carcinoma cells (HPV-negative) stably expressing BPV1 E2 and an HPV18 LCR luciferase reporter
- Knock-down reagent: siRNA pool against human genes, 40 nM
- Duration: 72 h
- Measured: 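Per-well luciferase luminescence, z-scored on each plate against the plate mean and SD with control wells left out, then averaged across three replicate plates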
- Scale: mean z-score and z-score: higher = stronger reporter signal, weaker E2 silencing
- Rule for the call: 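Hit if mean z-score reaches 2 and two or more of three replicate z-scores also reach 2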

BRIP1 gave mean z-score 0.65; z-score, replicate A = 0.64; z-score, replicate B = 0.68; z-score, replicate C = 0.64; inactive. LOC138972 (retired record) showed mean z-score -1.29; z-score, replicate A = -0.98; z-score, replicate B = -1.5; z-score, replicate C = -1.39; inactive. CXCR1 showed mean z-score 0.62; z-score, replicate A = 0.59; z-score, replicate B = 0.72; z-score, replicate C = 0.55; inactive. Silencing of SCAMP5 resulted in: mean z-score 0.67; z-score, replicate A = 0.51; z-score, replicate B = 0.76; z-score, replicate C = 0.74; inactive. With knock-down of RNF183 the results were mean z-score 1.26; z-score, replicate A = 1.2; z-score, replicate B = 1.52; z-score, replicate C = 1.05; inactive. SSU72 showed mean z-score 0.14; z-score, replicate A = -0.05; z-score, replicate B = 0.39; z-score, replicate C = 0.08; inactive.

After knock-down of RASGRF2, the screen gave mean z-score -0.68; z-score, replicate A = -1.13; z-score, replicate B = -0.32; z-score, replicate C = -0.61; inactive. Against TRAPPC8, the entry reads mean z-score -1.4; z-score, replicate A = -1.45; z-score, replicate B = -1.45; z-score, replicate C = -1.3; inactive. Knock-down of LOC388853 (retired record) came out at: mean z-score -0.44; z-score, replicate A = -0.61; z-score, replicate B = -0.18; z-score, replicate C = -0.52; inactive. After knock-down of CCDC136, the record shows mean z-score 0.41; z-score, replicate A = 0.44; z-score, replicate B = 0.47; z-score, replicate C = 0.31; inactive. With knock-down of QARS1, the record shows mean z-score 0.12; z-score, replicate A = -0.01; z-score, replicate B = 0.15; z-score, replicate C = 0.23; inactive. LAX1 gave mean z-score 0; z-score, replicate A = 0.24; z-score, replicate B = -0.02; z-score, replicate C = -0.21; inactive.

Depletion of SHCBP1 came out at: mean z-score 0.02; z-score, replicate A = -0.21; z-score, replicate B = 0.1; z-score, replicate C = 0.18; inactive. With knock-down of OR5K3, the screen gave mean z-score -1.6; z-score, replicate A = -1.32; z-score, replicate B = -1.75; z-score, replicate C = -1.73; inactive.

Entries above whose target name starts with R or r (2):
RNF183 — mean z-score = 1.26; z-score, replicate A = 1.2; z-score, replicate B = 1.52; z-score, replicate C = 1.05; activity call = inactive
RASGRF2 — mean z-score = -0.68; z-score, replicate A = -1.13; z-score, replicate B = -0.32; z-score, replicate C = -0.61; activity call = inactive
